A mixed list of measured activities; the numbers were collected in NIAID ChemDB.

Common to all: tests on isolated targets

ICn is the concentration giving n% inhibition. Rows are shuffled and stem from different studies. An empty or dashed field is not shown.

SMILES,strain or isolate,mutations,protein,agent,read-out,read by,value
O=C/C=C/c1ccccc1,-,-,Chitin synthase 1,Saccharomyces cerevisiae,Ki,-,530 µM
CC(=O)O[C@H]1C[C@H](n2cc(I)c(=O)[nH]c2=O)O[C@@H]1CN=[N+]=[N-],-,-,Thymidine kinase,Herpes simplex virus 1,IC50,-,>0.2 µM
CC#Cc1cn([C@@H]2O[C@H](CO)[C@@H](O)[C@@H]2O)c(=O)[nH]c1=O,G-31,-,DNA polymerase,Varicella zoster virus,IC50,-,0.16 µM
O=C(O)c1sc(-c2ccccc2)nc1OCc1cnnn1-c1cc2ccc(O)cc2oc1=O,-,-,DNA gyrase,Mycobacterium tuberculosis,IC50,gel / absorbance,17.4 µM
Nc1nc(N)c2c(n1)CCC(Cc1cccc(C(F)(F)F)c1)C2,-,-,Dihydrofolate reductase,Cryptosporidium parvum,IC50,-,5.75 µM
CC(=O)NC[C@H]1O[C@@H](n2cc(C)c(=O)[nH]c2=O)C[C@@H]1OC(C)=O,-,-,Thymidine kinase,Herpes simplex virus 1,IC50,-,13.2 µM
Nc1nc(Cl)nc2nc[nH]c12,RH,-,Phosphoribosyltransferase,Toxoplasma gondii,Ki,-,2200 µM
COc1cccc2c1C(=O)c1c(O)c3c(c(O)c1C2=O)C[C@@](O)(C(C)=O)C[C@@H]3O[C@H]1C[C@H](N)[C@H](O)[C@H](C)O1,-,-,NTPase/helicase,Dengue virus,IC50,-,150 µM
CCCCCC(C(=O)O)P(=O)(O)O,-,-,DNA polymerase,Duck hepatitis B virus,IC50,-,>100 µM
CN(Cc1ccc2nc(N)nc(N)c2n1)c1ccccc1Cl,-,-,Dihydrofolate reductase,Cryptosporidium parvum,IC50,-,0.65 µM
CC(CCC[NH+](C)C)C1CC[C@@]2(C)C3=C(CCC12C)C1(C)CCC(O)C(C)(C)C1CC3,-,-,C24-methyltransferase,Candida albicans,Ki,-,0.059 µM
CC(CC(F)(F)F)C(=O)Nc1ccsc1-c1nc(C(=O)O)c(O)c(=O)[nH]1,-,-,HCV polymerase,Hepatitis C virus,IC50,-,<25 µM
Nc1ccnc(=O)[nH]1,RH,-,Phosphoribosyltransferase,Toxoplasma gondii,Ki,-,476 µM
O=C(NCc1ccccc1COCc1ccccc1)Nc1ccsc1-c1nc(C(=O)O)c(O)c(=O)[nH]1,-,-,HCV polymerase,Hepatitis C virus,IC50,-,<25 µM
OC(Cn1cncn1)(Cn1cncn1)c1ccc(F)cc1F,652,-,Lanosterol 14-alpha demethylase,Candida albicans,IC50,-,0.065 µM
COC(=O)c1sc(-c2ccccn2)nc1OCc1cnnn1-c1cc2ccc(N)cc2oc1=O,-,-,DNA gyrase,Mycobacterium tuberculosis,IC50,gel / absorbance,0.5 µM
CC(CCC1[NH2+]C1(C)C)C1CC[C@@]2(C)C3=C(CCC12C)C1(C)CCC(O)C(C)(C)C1CC3,-,-,C24-methyltransferase,Candida albicans,IC50,-,5 µM
COC(=O)C1c2cc3c(c(O)c2C(O)CC1(C)O)C(=O)c1c(O)cc2c(c1C3=O)OC1OC2(C)C(O)C(N(C)C)C1O,-,-,NTPase/helicase,West Nile virus,IC50,-,>650 µM
CCC(=O)NC[C@H]1O[C@@H](n2cc(I)c(=O)[nH]c2=O)C[C@@H]1O,-,-,Thymidine kinase,Herpes simplex virus 1,IC50,-,0.41 µM
NC1CCN(c2nc3c(cc2F)c(=O)c(C(=O)O)cn3-c2ccc(F)cc2F)C1,NCTC10649,-,Gyrase,Staphylococcus aureus,IC50,-,0.24 µg/mL
CC(=O)OC1C=COC=C2C[C@@]3(O)C(=O)N4C5C(=COC=CC5OC(C)=O)C[C@@]4(S)C(=O)N3C21,TYPE A21,-,RNA polymerase,Coxsackie virus,IC50,-,121 µg/mL
CN(Cc1cnc2nc(N)nc(N)c2n1)c1ccc(C(=O)N2CCOCC2)cc1,-,-,Dihydrofolate reductase,Cryptosporidium parvum,IC50,-,>10 µM
CC(=O)OC1C=COC=C2C[C@@]3(SC(C)=O)C(=O)N4C5C(=COC=CC5OC(C)=O)C[C@@]4(SC(C)=O)C(=O)N3C21,TYPE A21,-,RNA polymerase,Coxsackie virus,IC50,-,0.09 µg/mL
Nc1ccc2cc(-n3nncc3COc3nc(-c4cccnc4)sc3C=O)c(=O)oc2c1,-,-,DNA gyrase,Mycobacterium tuberculosis,IC50,gel / absorbance,1.7 µM
CO[P@](=O)(c1cc(C)cc(/C=C/C#N)c1)c1c(C(N)=O)[nH]c2ccc(Cl)cc12,-,Y188L,Reverse transcriptase,HIV,IC50,-,1.15 µM
CC(C)CC(=O)NC[C@H]1O[C@@H](n2cc(I)c(=O)[nH]c2=O)C[C@@H]1OC(=O)CC(C)C,-,-,Thymidine kinase,Herpes simplex virus 1,IC50,-,0.23 µM
COC(=O)c1sc(-c2cccnc2)nc1OCc1cnnn1-c1cc2ccc(N)cc2oc1=O,-,-,DNA gyrase,Mycobacterium tuberculosis,IC50,gel / absorbance,8.5 µM
COc1ccccc1COC(=O)Nc1cscc1-c1nc(C(=O)O)c(O)c(=O)[nH]1,-,-,HCV polymerase,Hepatitis C virus,IC50,-,<25 µM
CCCCCCCCCC(C(=O)O)P(=O)(O)O,-,-,DNA polymerase,Duck hepatitis B virus,IC50,-,>100 µM
O=C(O)c1cc(C2CC2)c2nc(N3CCOCC3)c(F)cn2c1=O,NCTC10649,-,Gyrase,Staphylococcus aureus,IC50,-,1.5 µg/mL
C=C(CCC(C)C1CCC2C3=C(CCC21C)C1(C)CCC(O)CC1CC3)C(C)C,-,-,C24-methyltransferase,Candida albicans,Ki,-,72 µM
CCCCCCCC/C=C/CCCCCCCC(=O)Nc1nnc(NCCc2ccccc2)s1,-,-,Polymerase,Human cytomegalovirus,IC50,-,<25 µM
Nc1ccc2cc(-n3nncc3COc3nc(-c4ccccn4)sc3C=O)c(=O)oc2c1,-,-,DNA gyrase,Mycobacterium tuberculosis,IC50,gel / absorbance,0.44 µM
O=C(O)c1cc(C2CC2)c2cc(N3CCNCC3)c(F)cn2c1=O,NCTC10649,-,Gyrase,Staphylococcus aureus,IC50,-,0.15 µg/mL
O=C1N2C3C(=COC=CC3O)CC23SSC12CC1=COC=CC(O)C1N2C3=O,TYPE A21,-,RNA polymerase,Coxsackie virus,IC50,-,0.007 µg/mL
O=C(Nc1nnc(NC2CCCc3ccccc32)s1)c1cc(F)cc(F)c1,-,-,Polymerase,Human cytomegalovirus,IC50,-,>25 µM
O=C(Nc1ccsc1-c1nc(C(=O)O)c(O)c(=O)[nH]1)OCC1CCCC1,-,-,HCV polymerase,Hepatitis C virus,IC50,-,<25 µM
Clc1ccc(COC(Cn2ccnc2)c2ccc(Cl)cc2Cl)c(Cl)c1,652,-,Lanosterol 14-alpha demethylase,Candida albicans,IC50,-,0.32 µM
CCOc1ccccc1COC(=O)Nc1ccsc1-c1nc(C(=O)O)c(O)c(=O)[nH]1,-,-,HCV polymerase,Hepatitis C virus,IC50,-,<25 µM
O=Cc1sc(-c2ccccc2)nc1OCc1cnnn1-c1cc2ccc(O)cc2oc1=O,-,-,DNA gyrase,Mycobacterium tuberculosis,IC50,gel / absorbance,>25 µM
O=C1C=COC=C2C[C@@]34SS[C@]5(CC6=COC=CC(O)C6N5C3=O)C(=O)N4C12,TYPE A21,-,RNA polymerase,Coxsackie virus,IC50,-,0.06 µg/mL
O=C1NC(=O)c2c1c1c3ccccc3[nH]c1c1c2c2ccccc2n1[C@@H]1O[C@H](CO)[C@@H](O)[C@H](O)[C@H]1O,-,-,Protein kinase C,Candida albicans,IC50,-,>100 µM
C[n+]1cc2nccnc2[n+](C)c1,RH,-,Phosphoribosyltransferase,Toxoplasma gondii,IC50,-,>900 µM
O=C(O)Cc1ccc(O)cc1,Rv1284,-,Rv1284,Mycobacterium tuberculosis,Ki,-,11.4 µM
O=C(Nc1cccc(-c2nc(C(=O)O)c(O)c(=O)[nH]2)c1)Nc1cccc2ccccc12,-,-,HCV polymerase,Hepatitis C virus,IC50,-,<100 µM
NC1CCN(c2nc3c(C4CC4)cc(C(=O)O)c(=O)n3cc2F)C1,NCTC10649,-,Gyrase,Staphylococcus aureus,IC50,-,0.15 µg/mL
O=c1[nH]c2nc[nH]c(=O)c2[nH]1,RH,-,Phosphoribosyltransferase,Toxoplasma gondii,Ki,-,4100 µM
N[C@@H](Cc1ccccc1)C(=O)Nc1ccsc1-c1nc(C(=O)O)c(O)c(=O)[nH]1,-,-,HCV polymerase,Hepatitis C virus,IC50,-,<25 µM
COc1ccc(OC)c(NCc2ccc3nc(N)nc(N)c3c2Cl)c1,-,-,Dihydrofolate reductase,Cryptosporidium parvum,IC50,-,0.2 µM
[N-]=[N+]=NC[C@H]1O[C@@H](n2ccc(=O)[nH]c2=O)C[C@@H]1O,-,-,Thymidine kinase,Herpes simplex virus 1,IC50,-,3.7 µM
O=C(Nc1ccsc1-c1nc(C(=O)O)c(O)c(=O)[nH]1)NC(CO)c1ccccc1,-,-,HCV polymerase,Hepatitis C virus,IC50,-,<25 µM
O=C(Nc1nnc(NCCC(c2ccccc2)c2ccccc2)s1)c1cc2ccccc2s1,-,-,Polymerase,Human cytomegalovirus,IC50,-,>25 µM
NC(=O)c1[nH]cnc1N,RH,-,Phosphoribosyltransferase,Toxoplasma gondii,Ki,-,7.9 µM
CCOC(=O)OC1C=COC=C2C[C@@]34SS[C@]5(CC6=COC=CC(O)C6N5C3=O)C(=O)N4C21,TYPE A21,-,RNA polymerase,Coxsackie virus,IC50,-,0.0002 µg/mL
O=C(O)C(CCCCCCCCCCCBr)P(=O)(O)O,-,-,DNA polymerase,Duck hepatitis B virus,IC50,-,>100 µM
O=C(NCc1cccs1)Nc1cscc1-c1nc(C(=O)O)c(O)c(=O)[nH]1,-,-,HCV polymerase,Hepatitis C virus,IC50,-,<25 µM
O=C(Nc1nnc(NCc2cccnc2)s1)c1c(Cl)cccc1Cl,-,-,Polymerase,Human cytomegalovirus,IC50,-,<25 µM
CC(=O)NC[C@H]1O[C@@H](n2ccc(=O)[nH]c2=O)C[C@@H]1O,-,-,Thymidine kinase,Herpes simplex virus 1,IC50,-,>5 µM